Experimental findings from patent publication US10611795B2, “Methods for viral inactivation using eco-friendly detergents” (priority 2013, dated 2020) are described below.

This experiment concerns Xenotropic Murine Leukemia Virus (XMuLV). Put plainly: XMuLV inactivation, TCID50 assay with PG-4 indicator cells (LRV). The format is cell-based. The following applies: MAb1 HCCF, 20° C.

On to `CCCCOP(=O)(OCCCC)OCCCC`, for which the “xMuLV inactivation LRV, Time 1” value (1 h) worked out at 2.9. Also, the “xMuLV inactivation LRV, Time 3” value (3 h) is on record as 3.1. For the same compound, for the setting “detergent or solvent alone”, the “xMuLV inactivation, in words” value was “less effective”.
